What was measured:
[1] = target: CYP125 (Mycobacterium tuberculosis, UniProt P9WPP1); assay type: binding; conditions: compound 100 µM, P450 5 µM; ratio of low spin to high spin CYP125
[2] = target: CYP142 (Mycobacterium tuberculosis, UniProt P9WPL5); conditions: compound 100 µM, P450 5 µM

Sequences of proteins named here, by UniProt entry; tags and fusion partners are left off. A change or cut given only in a name is not applied to a line headed by its entry.
UniProt P9WPP1: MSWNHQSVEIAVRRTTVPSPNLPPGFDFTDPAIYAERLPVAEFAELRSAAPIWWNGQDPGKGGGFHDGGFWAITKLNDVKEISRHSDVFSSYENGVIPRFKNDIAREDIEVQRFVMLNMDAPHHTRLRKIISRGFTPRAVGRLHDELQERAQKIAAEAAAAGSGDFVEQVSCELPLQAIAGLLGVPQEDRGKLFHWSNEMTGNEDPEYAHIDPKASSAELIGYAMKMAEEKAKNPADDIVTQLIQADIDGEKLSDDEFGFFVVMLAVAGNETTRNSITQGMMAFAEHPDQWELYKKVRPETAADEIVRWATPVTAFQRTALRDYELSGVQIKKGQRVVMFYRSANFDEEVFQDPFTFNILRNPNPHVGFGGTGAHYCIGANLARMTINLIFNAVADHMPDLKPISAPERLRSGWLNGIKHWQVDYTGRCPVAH
UniProt P9WPL5: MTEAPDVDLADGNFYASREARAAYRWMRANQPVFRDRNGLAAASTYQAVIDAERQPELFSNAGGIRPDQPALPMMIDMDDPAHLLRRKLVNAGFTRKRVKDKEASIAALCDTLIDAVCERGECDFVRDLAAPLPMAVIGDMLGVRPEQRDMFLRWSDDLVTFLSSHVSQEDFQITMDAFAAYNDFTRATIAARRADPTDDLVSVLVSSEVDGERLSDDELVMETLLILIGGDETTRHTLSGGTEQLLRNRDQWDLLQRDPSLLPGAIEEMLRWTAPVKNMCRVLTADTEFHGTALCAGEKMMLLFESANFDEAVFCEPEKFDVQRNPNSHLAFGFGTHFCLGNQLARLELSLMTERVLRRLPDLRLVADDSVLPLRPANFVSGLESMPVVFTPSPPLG

In the case of 3-(Pyridin-4-ylmethyl)aniline [3d], the “CYP125 LS/HS” value [1] is reported as 1.3 and the “CYP142 Δλmax (nm)” value [2] is reported as 2 nm.

— article PMC12305662, “Fragment-Based Development of Small Molecule Inhibitors Targeting Mycobacterium tuberculosis Cholesterol Metabolism” (Journal of Medicinal Chemistry, 2025)
